Laboratory results as given in patent publication US8232271B2 (priority 2008, dated 2012).

Target: HCV polymerase (NS5B570n-Con1) (Hepatitis C virus genotype 1b, UniProt Q9WMX2)
Assay: HCV NS5B RNA polymerase activity assay
Assay type: biochemical, HCV Con1 strain
Conditions: read-out: IC50 NS5B polymerase assay (Example 33)
Method: The enzymatic activity of HCV polymerase (NS5B570n-Con1) was measured as the incorporation of radiolabeled nucleotide monophosphates into acid insoluble RNA products. Unincorporated radiolabeled substrate was removed by filtration and scintillant was added to the washed and dried filter plate containing radiolabeled RNA product. The amount of RNA product generated by NS5B570-Con1 at the end of the reaction was directly proportional to the amount of light emitted by the scintillant.
The N-terminal 6-histidine tagged HCV polymerase, derived from HCV Con1 strain, genotype 1b (NS5B570n-Con1) contains a 21 amino acid deletion at the C-terminus relative to the full-length HCV polymerase and was purified from E. coli strain BL21(DE) pLysS. The construct, containing the coding sequence of HCV NS5B Con1 (GenBank accession number AJ242654) was inserted into the plasmid construct pET17b, downstream of a T7 promoter expression cassette and transformed into E. coli. A single colony was grown overnight as a starter culture and later used inoculate 10 L of LB media supplemented with 100 μg/mL ampicillin at 37° C. Protein expression was induced by the addition of 0.25 mM isopropyl-β-D-thiogalactopyranoside (IPTG) when optical density at […] of the culture was between 0.6 and 0.8 and cells were harvested after 16 to 18 h at 30° C. NS5B570n-Con1 was purified to homogeneity using a three-step protocol including subsequent column chromatography on Ni-NTA, SP-Sepharose HP and Superdex 75 resins.
Each 50 μl enzymatic reaction contained 20 nM RNA template derived from the complementary sequence of the Internal Ribosome Entry Site (cIRES), 20 nM NS5B570n-Con1 enzyme, 0.5 μCi of tritiated UTP (Perkin Elmer catalog no. TRK-412; specific activity: 30 to 60 Ci/mmol; stock solution concentration from 7.5×10^-5 M to 20.6×10^-6 M), 1 μM each ATP, CTP, and GTP, 40 mM Tris-HCl pH 8.0, 40 mM NaCl, 4 mM DTT (dithiothreitol), 4 mM MgCl2, and 5 μl of compound serial diluted in DMSO. Reaction mixtures were assembled in 96-well filter plates (cat #MADVN0B, Millipore Co.) and incubated for 2 h at 30° C. Reactions were stopped by addition of 10% final (v/v) trichloroacetic acid and incubated for 40 min at 4° C. […]
The amount of light emitted from the scintillant was converted to counts per minute (CPM) on a Topcount® plate reader (Perkin-Elmer, Energy Range: Low, Efficiency Mode: Normal, Count Time: 1 min, Background Subtract: none, Cross talk reduction: Off).
Data was analyzed in Excel® (Microsoft®) and ActivityBase® (Idbs®). […] All data was expressed as a percentage of the positive control. […]

SMILES | pIC50
COc1cc(CN(CC2CCC2)S(=O)(=O)C(C)C)c(-c2ccc[nH]c2=O)cc1C(C)(C)C | 6.88
COc1cc(CNC(=O)[C@H]2C[C@H](NS(C)(=O)=O)CN2)c(-c2ccc[nH]c2=O)cc1C(C)(C)C | 6.77
CCCCN(Cc1cc(OC)c(C(C)(C)C)cc1-c1ccc[nH]c1=O)S(C)(=O)=O | 7.07
COc1cc(CNC(=O)c2ccccc2)c(-c2ccc[nH]c2=O)cc1C(C)(C)C | 7.72

pIC50: −log10 of the molar value.
